Experimental data from ChEMBL document CHEMBL1773071, “Development of tricyclic hydroxy-1H-pyrrolopyridine-trione containing HIV-1 integrase inhibitors” (Bioorg Med Chem Lett, 2011).

Key:
[1] = system: Human immunodeficiency virus 1; assay: Resistant fold, ratio of IC50 for HIV1 integrase G140S/Q148H mutant strand transfer activity to IC50 for wild type HIV1 integrase strand transfer activity in presence of magnesium
[2] = system: Human immunodeficiency virus 1; assay: Resistant fold, ratio of IC50 for HIV1 integrase Y143R mutant strand transfer activity to IC50 for wild type HIV1 integrase strand transfer activity in presence of magnesium
[3] = system: Human immunodeficiency virus 1; assay: Resistant fold, ratio of IC50 for HIV1 integrase N155H mutant strand transfer activity to IC50 for wild type HIV1 integrase strand transfer activity in presence of magnesium

Compound: O=C1c2c(c3n(c(=O)c2O)CCCC3)C(=O)N1Cc1ccc(F)c(Cl)c1
- Ratio IC50 [1]: 6
- Ratio IC50 [2]: 2
- Ratio IC50 [3]: 3
